The results in this text go back to PMC5999986.

By UniProt entry, the sequences of proteins in these tests, tags left out. Residues count along the entry.
UniProt P9WMF9, whole entry: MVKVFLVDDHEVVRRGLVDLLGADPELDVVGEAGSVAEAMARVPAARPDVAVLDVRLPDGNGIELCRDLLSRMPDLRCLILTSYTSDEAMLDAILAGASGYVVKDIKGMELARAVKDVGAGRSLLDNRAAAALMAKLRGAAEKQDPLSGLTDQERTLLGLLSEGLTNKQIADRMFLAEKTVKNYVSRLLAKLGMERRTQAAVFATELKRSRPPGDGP
UniProt P9WMF9, 144-217: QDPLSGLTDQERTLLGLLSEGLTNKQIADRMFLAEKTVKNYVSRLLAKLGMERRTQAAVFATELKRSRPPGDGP

The exact form of at least one protein or probe is not confirmed.

The target in data set [1] is DosR (DosRwt) (Mycobacterium tuberculosis) (UniProt P9WMF9). Nature of the data set: ITC. The note with it: ITC: 20 mM Tris pH 8.0, 200 mM NaCl, 25 C, recombinant protein, residues 1-217, label: none (ethidium bromide stain).
The target of data set [2] is DosR-C (Mycobacterium tuberculosis) (UniProt P9WMF9). Nature of the data set: ITC. The conditions noted are these: ITC: 20 mM Tris pH 8.0, 200 mM NaCl, 25 C, recombinant protein, residues 144-217, protein details: C-terminal His6 (primer PTD2), label: none (ethidium bromide stain).

Usually Kd stands for the constant that tells how readily two partners part at equilibrium.

Regarding “TTGGGGACTAAAGTCCCTAA (double strand) [20-bp DosR regulon consensus DNA (EM1/EM2)]”, the Kd in data set [1] is 3.17 µM; in data set [2], 0.52 µM.
